By UniProt entry, the sequences of proteins in these tests, tags left out. Where a name states a change or a piece, a line headed by the entry shows the natural chain unless it says otherwise. Residues count along the entry.
UniProt P01903, 26-254 limits assumed: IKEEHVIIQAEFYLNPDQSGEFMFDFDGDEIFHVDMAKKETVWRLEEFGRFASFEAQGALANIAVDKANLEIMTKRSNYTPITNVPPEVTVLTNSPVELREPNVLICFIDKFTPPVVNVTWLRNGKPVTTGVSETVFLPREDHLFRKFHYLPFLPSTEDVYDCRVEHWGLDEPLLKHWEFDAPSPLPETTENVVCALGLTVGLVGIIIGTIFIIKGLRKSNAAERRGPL

According to paper PMC3445454, “Broad and Cross-Clade CD4^+ T-Cell Responses Elicited by a DNA Vaccine Encoding Highly Conserved and Promiscuous HIV-1 M-Group Consensus Peptides” (PLoS ONE, 2012):

Columns and labels:
Test in all cases: biochemical
[1] = biological target: HLA-DQ DQA1*01:04/DQB1*05:03 (Homo sapiens, UniProt P01909+P01920, A157S/A221T/A45G/A70V/C70R/D25G/E106S/E118A/E183D/E77G/F83G/G63E/H151Q/H199R/H252R/H253Q/I129T/I235V/I88M/INS77G/K197Q/L107V/L117V/L119Y/L178F/L71W/L74F/L85Q/L91A/L98M/M46L/N214S/P87R/Q116E/Q256R/Q57E/Q76K/R102G/R240Q/R75S/R78G/S102Y/S185I/S41F/S97I/T103A/T109R/T121G/T122I/T172A/T86R/V148I/V68A/V73E/Y34C/Y58G/Y62H)
[2] = biological target: HLA-DQ DQA1*03:01/DQB1*03:02 (Homo sapiens, UniProt P01909+P01920, A209T/A45G/C70Q/D89A/DUP78-78/E183D/E77G/F237L/G63E/H199R/I129T/K197E/L178F/L74F/L98V/Q57E/Q76R/S185I/S97I/T217I/T49S/V73L/Y58L); format: binding; conditions: read-out: Binding capacity/IC50 (nM) DQA1*03:01 DQB1*03:02
[3] = biological target: HLA-DQ DQA1*04:01/DQB1*04:02 (Homo sapiens, UniProt P01909+P01920, A45G/E106S/E183D/E77G/E98D/H199R/I129T/K197E/L107V/L178F/L91T/P87R/P88L/R102E/S185I/S97I/T103D/T217I/V99I/Y41F/Y58G)
[4] = biological target: HLA-DQ DQA1*01:01/DQB1*05:01 (Homo sapiens, UniProt P01909+P01920, A157S/A45G/A70V/C70R/D89V/E106S/E118A/E183D/E77G/F83G/G63E/H151Q/H199R/H252R/H253Q/I129T/I235V/I88M/INS77G/K197Q/L107V/L117V/L119Y/L178F/L71W/L74F/L85Q/L91A/L98M/M46L/N214S/P87R/Q116E/Q256R/Q57E/Q76K/R102G/R240Q/R75S/R78G/S102Y/S185I/S41F/S97I/T103A/T109R/T121G/T122I/T172A/T86R/V148I/V68A/V73E/Y34C/Y58G/Y62H)
[5] = biological target: HLA-DR DRB1*03:01 (Homo sapiens, UniProt P01903+P01911, A100K/A102G/A103R/A169T/F55Y/I96L/K41T/L162R/M171V/P40S/Q125H/Q178H/Q39Y/R42S/S66N/T106N/T262R/W38E/Y61H); format: binding; conditions: read-out: Binding capacity/IC50 (nM) DRB1*03:01
[6] = biological target: HLA-DQ DQA1*01:02/DQB1*06:02 (Homo sapiens, UniProt P01909+P01920, A157G/A45G/C70R/E118A/E183D/E77G/F83G/G63E/H151Q/H199R/H252R/H253Q/I129T/I235V/I88M/INS77G/K197Q/L117V/L119F/L178F/L71W/L74F/L85Q/L91A/L98M/N214S/P87R/Q116E/Q76K/R102G/R240Q/R75S/R78G/S102Y/S185I/S41F/S97I/T121G/T122I/T172A/T86R/V229M/V68A/V73E/Y34C/Y41F/Y58L); format: binding; conditions: read-out: Binding capacity/IC50 (nM) DQA1*01:02 DQB1*06:02
[7] = biological target: HLA-DQ DQA1*03:01/DQB1*03:01 (Homo sapiens, UniProt P01909+P01920, A209T/C70Q/DUP78-78/E183D/F237L/G63E/I129T/K197E/L178F/L74F/L98V/Q57E/Q76R/S185I/S97I/T49S/V73L); format: binding
[8] = biological target: HLA-DQ DQA1*05:01/DQB1*02:01 (Homo sapiens, UniProt P01909+P01920, A45G/A70V/D89A/E106A/E77G/E98D/H199R/L107V/N214S/P84L/P87L/T103K/T109R/T172A/T60S/V78E/V99I/Y58L/Y62S/Y69I/Y79F)
[9] = biological target: HLA-DQ DQA1*01:02/DQB1*05:02 (Homo sapiens, UniProt P01909+P01920, A157S/A45G/A70V/C70R/D89S/E106S/E118A/E183D/E77G/F83G/G63E/H151Q/H199R/H252R/H253Q/I129T/I235V/I88M/INS77G/K197Q/L107V/L117V/L119Y/L178F/L71W/L74F/L85Q/L91A/L98M/M46L/N214S/P87R/Q116E/Q158H/Q256R/Q76K/R102G/R240Q/R75S/R78G/S102Y/S185I/S41F/S97I/T103A/T109R/T121G/T122I/T172A/T86R/V148I/V229M/V68A/V73E/Y34C/Y58G/Y62H)
[10] = biological target: HLA-DQ DQA1*01:03/DQB1*06:03 (Homo sapiens, UniProt P01909+P01920, A157G/A45G/C70R/E118A/E183D/E77G/F83G/G63E/H199R/H252R/H253Q/I129T/I235V/I88M/INS77G/K197Q/L117V/L119F/L178F/L71W/L74F/L85Q/L91A/L98M/N214S/P87R/Q116E/Q76K/R102G/R240Q/R64K/R75S/R78G/S102Y/S152A/S185I/S41F/S97I/T121G/T122I/T172A/T86R/V68A/V73E/Y34C/Y48F/Y58L/Y62H)
[11] = biological target: HLA-DQ DQA1*02:01/DQB1*02:02 (Homo sapiens, UniProt P01909+P01920, A45G/A70V/C70K/D167G/D89A/E106A/E183D/E77G/E98D/F237L/F77L/G63E/H199R/I129T/K197E/L107V/L178F/L74F/N214S/P84L/P87L/Q57E/Q76R/R75H/S185I/S97I/T103K/T109R/T172A/T60S/V73L/V78E/V99I/Y48F/Y58L/Y62S/Y69I/Y79F); format: binding
[12] = read-out: Binding capacity/IC50 (nM) DQA1*02:01 DQB1*02:02
[13] = read-out: Binding capacity/IC50 (nM) DQA1*03:01 DQB1*03:01

SMILES | IC50 [1] [nM] | IC50 [2] [nM] | IC50 [3] [nM] | IC50 [4] [nM] | IC50 [5] [nM] | IC50 [6] [nM] | IC50 [7] [nM] | IC50 [8] [nM] | IC50 [9] [nM] | IC50 [10] [nM] | IC50 [11, 12] [nM] | IC50 [7, 13] [nM] | IC50 [11] [nM]
CC[C@H](C)[C@H](NC(=O)[C@H](C)NC(=O)[C@H](CCC(N)=O)NC(=O)[C@H](Cc1c[nH]cn1)NC(=O)[C@@H](NC(=O)[C@H](CCSC)NC(=O)[C@H](CCC(N)=O)NC(=O)CNC(=O)[C@H](CCC(N)=O)NC(=O)[C@H](CC(C)C)NC(=O)[C@H](CC(N)=O)NC(=O)[C@H](CCC(N)=O)NC(=O)[C@@H](NC(=O)[C@@H](NC(=O)[C@@H]1CCCN1C(=O)[C@H](Cc1ccc(O)cc1)NC(=O)[C@@H](N)CC(N)=O)[C@@H](C)CC)C(C)C)C(C)C)C(=O)N[C@@H](CO)C(=O)N1CCC[C@H]1C(=O)N[C@@H](CCCNC(=N)N)C(N)=O [p17(131-132)/p24(1-18)] | 4000 | 9340 | 6100 | 599 | 3350 | 852 | 228 | 5140 | 265 | 77 | 26400 |  | 
CC[C@H](C)[C@H](NC(=O)[C@@H]1CCCN1C(=O)[C@H](CCC(=O)O)NC(=O)[C@@H](N)CCCCN)C(=O)N[C@H](C(=O)NCC(=O)N[C@@H](C)C(=O)N[C@@H](CCC(=O)O)C(=O)N[C@H](C(=O)N[C@@H](Cc1ccccc1)C(=O)N[C@@H](Cc1ccc(O)cc1)C(=O)N[C@H](C(=O)N[C@@H](CC(=O)O)C(=O)NCC(=O)N[C@@H](C)C(N)=O)C(C)C)[C@@H](C)O)C(C)C [RT(431-445)] | 624 | 1580 | 328 | 1150 | 107 | 968 |  | 107 | 4620 | 301 | 595 | 54 | 
CC[C@H](C)[C@H](NC(=O)[C@H](Cc1ccc(O)cc1)NC(=O)CNC(=O)[C@H](CO)NC(=O)[C@H](C)NC(=O)[C@@H](NC(=O)[C@H](Cc1c[nH]cn1)NC(=O)[C@@H](NC(=O)[C@H](C)NC(=O)[C@@H](NC(=O)[C@H](CC(C)C)NC(=O)[C@@H](NC(=O)[C@@H](NC(=O)[C@H](CCCCN)NC(=O)CNC(=O)[C@@H](N)CCC(=O)O)[C@@H](C)CC)[C@@H](C)CC)C(C)C)C(C)C)C(C)C)C(=O)N[C@@H](CCC(=O)O)C(N)=O [integrase(69-85)] | 734 | > 30000 | 5620 | 409 |  | 14 |  | 5700 | 630 | 21500 | 5590 | 426 | 
CC[C@H](C)[C@H](NC(=O)[C@H](C)NC(=O)[C@@H](N)CCC(=O)O)C(=O)N[C@H](C(=O)N[C@@H](CCCNC(=N)N)C(=O)N[C@H](C(=O)N[C@@H](CC(C)C)C(=O)N[C@@H](CCC(N)=O)C(=O)N[C@@H](CCC(N)=O)C(=O)N[C@@H](CC(C)C)C(=O)N[C@@H](CC(C)C)C(=O)N[C@@H](Cc1ccccc1)C(=O)N[C@H](C(=O)N[C@@H](Cc1c[nH]cn1)C(=O)N[C@@H](Cc1ccccc1)C(=O)N[C@@H](CCCNC(=N)N)C(=O)N[C@H](C(=O)NCC(=O)N[C@@H](CS)C(=O)N[C@@H](CCC(N)=O)C(=O)N[C@@H](Cc1c[nH]cn1)C(=O)N[C@@H](CO)C(=O)N[C@@H](CCCNC(=N)N)C(N)=O)[C@@H](C)CC)[C@@H](C)CC)[C@@H](C)CC)[C@@H](C)CC [vpr(58-80)] | 415 | > 30000 | 2980 | 177 |  | 4170 |  | > 30000 | 388 | > 30000 |  | 812 | 14900

Where two headings read alike, the source gives them in different places.
